Anti-infective test results gathered from many reports (values: NIAID ChemDB through PubChem).

Common to all: tests in culture; organism: HIV-1

ECn: concentration that inhibits the pathogen or its effect by n%. An empty or dashed field is not shown. Conditions beyond the fields shown may differ between rows.

compound | read by | mutations | cells | measure | strain | result
N#CC1C=Cc2ccccc2N1C(=O)c1ccc(Cl)cc1 | syncytia |  | MOLT-3 | EC50 | IIIB | 5.5 µM
Cc1cn([C@@H]2C[C@@H](N=[N+]=[N-])[C@H](COP(N)(=O)OC[C@H]3O[C@@H](n4cc(C)c(=O)[nH]c4=O)C[C@@H]3N=[N+]=[N-])O2)c(=O)[nH]c1=O |  |  | CEM + CEM TK- | EC50 |  | >10 µM
CC(C)CN(CC(O)CCN1C[C@H]2CCCC[C@H]2C[C@H]1C(=O)NC(C)(C)C)S(=O)(=O)c1ccccc1 | p24 |  | CEM | EC90 | IIIB | 1 µM
CCc1c(Sc2ccccc2)n(COCCO)c(=O)[nH]c1=O | MTT / syncytia |  | MT-2 | EC50 | IIIB | 0.027 µM
CCc1c(Sc2ccccc2)n(COCc2ccccc2)c(=O)[nH]c1=O | cytopathic effect / MTT |  | MT-4 | EC50 | IIIB | 0.0049 µM
Cc1cc(C)c2c(N)c(C(=O)Nc3cccc(F)c3)sc2n1 | XTT |  | CEM-SS | EC50 | RF | >100 µM
COc1ccc(C(=O)CSc2nc(CC3CCCCC3)c(C)c(=O)[nH]2)cc1 |  |  | C8166 | EC50 |  | 1.06 µM
O=C(c1ccccc1)N(CCc1ccccc1)C[C@H](O)CN(CC1CCCC1)S(=O)(=O)C1CCS(=O)(=O)C1 | p24 |  | CEM | EC50 | IIIB | <1 µM
CCOC(=O)N1c2ccc3ccccc3c2C=CC1C#N | syncytia | RT-P236L | MOLT-3 | EC50 | IIIB | 14.3 µM
Cn1nc(NS(C)(=O)=O)c2c(Cl)ccc(-n3c([C@H](Cc4cc(F)cc(F)c4)NC(=O)Cn4nc(C(F)(F)F)c5c4C(F)(F)[C@@H]4C[C@H]54)nccc3=O)c21 | luminescence |  | MT-2 | EC50 | NL4-3 | 0.000493 µM
Nc1cc(O)ccc1-c1nn2c(-c3ccc(O)c(Cl)c3Cl)nnc2s1 | MTT |  | MT-4 | EC50 | IIIB | >19.61 µg/mL
CC(C)CN(C(=O)C(=O)C(=O)c1ccccc1C(=O)NC(C)(C)C)S(=O)(=O)c1ccccc1 | p24 |  | CEM | EC90 | IIIB | 1 µM
Cc1cnc2n1S(=O)(=O)c1cc(C(=O)O)c(Cl)cc1S2 | cytopathic effect / XTT |  | CEM | EC50 |  | >200 µM
Nc1ccc([C@H]2CC(=O)[C@@H](CO)O2)c(F)c1 |  |  | CEM | EC50 |  | >250 µM
CC1(C)S[C@H](C(NC(=O)Cc2ccccc2)C(=O)NCCO)N[C@H]1C(=O)NCCNC(=O)[C@@H]1N[C@@H](C(NC(=O)Cc2ccccc2)C(=O)NCc2ccccc2)SC1(C)C | syncytia |  | C8166 | EC50 | RF | 1.1 µM
CCOCn1c(Cc2ccccc2)c(C(C)C)c(=O)[nH]c1=O | p24 |  | C8166 | EC50 | RF | 0.0024 µM
CC(C)c1c(Cc2ccccc2)nc(SCC(=O)c2ccccc2)[nH]c1=O |  |  | C8166 | EC50 |  | 0.01401 µM
CC(C)(C)NC(=O)[C@@H]1C[C@@H]2CCCC[C@@H]2CN1C[C@@H](O)[C@H](Cc1ccccc1)NC(=O)[C@@H](NC(=O)Cc1cc2c(O)cccc2cn1)C(C)(C)S(C)(=O)=O |  |  | PBMC | EC50 | NL4-3 | 0.019 µM
COc1ccc(S(=O)(=O)N(CC2CCCC2)C[C@@H](O)CN(CCc2ccccc2)C(=O)c2ccccc2)cc1 | p24 |  | CEM | EC50 | IIIB | <0.1 µM
COC(=O)[C@H](C)NP(=O)(OC[C@H]1O[C@@H](n2cc(C)c(=O)[nH]c2=O)C[C@@H]1N=[N+]=[N-])Oc1ccc(F)cc1 | p24 |  | PBMC | EC50 | IIIB | 0.039 µM
CCCCCCCCCCC[C@@]1(O)C[N+](C)(C)C[C@@H](CC(=O)[O-])O1 | virus yield |  |  | EC50 | RF | ~320 µg/mL
CC(C)=CCOc1cc(NC(=S)c2ccoc2C)ccc1Cl | p24 / RT activity |  | MT-2 | EC50 | IIIB | 0.008 µM
Nc1ccc(-c2nnc3sc(-c4cc5ccccc5oc4=O)nn23)cc1 | MTT |  | MT-4 | EC50 | IIIB | >108.3 µg/mL
COC(=O)[C@H](C)NP(=O)(OC[C@@H]1C=C[C@H](n2cc(C)c(=O)[nH]c2=O)O1)Oc1ccc(Cl)cc1 | p24 |  | PBMC | EC50 | IIIB | 0.001 µM
CC(=O)c1cccc(NC(=O)c2sc3nc(C)cc(C)c3c2N)c1 | XTT |  | CEM-SS | EC50 | RF | >63 µM
O=C1CSc2nnc(-c3ccc(Cl)c(Cl)c3)n2N1 | MTT |  | MT-4 | EC50 | IIIB | >35.23 µg/mL
COC(=O)[C@H](C)NP(=O)(OC[C@H]1O[C@@H](n2cc(C)c(=O)[nH]c2=O)C[C@@H]1N=[N+]=[N-])Oc1ccccc1 | p24 |  | PBMC | EC50 | IIIB | 0.055 µM
Oc1ccc(-c2nnc3sc(-c4cccs4)nn23)c(Cl)c1Cl | MTT |  | MT-4 | EC50 | IIIB | >92.7 µg/mL
Cn1nc(NS(C)(=O)=O)c2c(Cl)ccc(-n3c([C@@H](Cc4cc(F)cc(F)c4)NC(=O)Cn4nc(C(F)(F)F)c5c4C(F)(F)[C@@H]4C[C@H]54)nccc3=O)c21 | luminescence |  | MT-2 | EC50 | NL4-3 | 0.07 µM
Cc1cn([C@H]2C[C@H](N=[N+]=[N-])[C@@H](CO)O2)c(=O)[nH]c1=O | MTT |  | MT-4 | EC50 | IIIB | 0.0015 µg/mL
CCCCCCCCCc1ccc(OCCOCCOCCOCCOCCOCCOCCOCCOCCO)cc1 | virus yield |  |  | EC50 | RF | ~32 µg/mL
CCCCCCCCCCCCCCO | RT activity |  | H9 | EC50 | IIIB | 10 µg/mL
N#Cc1cc2c(cc1Cl)Sc1nccn1S2(=O)=O | cytopathic effect / XTT |  | CEM | EC50 |  | >200 µM
COC(=O)[C@H](C)NP(=O)(OC[C@@H]1C=C[C@H](n2cc(C)c(=O)[nH]c2=O)O1)Oc1ccc(F)cc1 | p24 |  | PBMC | EC50 | IIIB | 0.001 µM
CC1(C)S[C@H]([C@H](NC(=O)Cc2ccccc2)C(=O)NCc2ccccc2)N[C@H]1C(=O)NCCNC(=O)[C@@H]1N[C@@H]([C@H](NC(=O)Cc2ccccc2)C(=O)NCc2ccc(C(=O)O)cc2)SC1(C)C | cytopathic effect / MTT |  | MT-4 | EC50 | IIIB | >100 µM
COc1ccc(C(=O)CSc2nc(CC3CCCCC3)c(C(C)C)c(=O)[nH]2)cc1 |  |  | C8166 | EC50 |  | 0.000162 µM
Cc1cn([C@H]2C[C@H](F)[C@@H](CO)O2)c(=O)[nH]c1=O | single cycle |  | MAGI | EC50 | BaL | <0.1 µg/mL
CC(C)c1c(CC2CCCCC2)nc(SCC(=O)c2ccccc2O)[nH]c1=O |  |  | C8166 | EC50 |  | 0.00195 µM
Nc1c(C(=O)Nc2ncccn2)sc2nc(-c3ccccc3)cc(C(F)(F)F)c12 | XTT |  | CEM-SS | EC50 | RF | >63 µM
CC(C)[C@H](NC(=O)c1ccccc1)C(=O)N/N=C/c1c(F)cccc1F | MTT |  | MT-4 | EC50 | IIIB | 12.1 µM
CN(C)CCNC(=O)C(NC(=O)Cc1ccccc1)[C@@H]1N[C@@H](C(=O)NCCNC(=O)[C@@H]2N[C@@H](C(NC(=O)Cc3ccccc3)C(=O)NCc3ccccc3)SC2(C)C)C(C)(C)S1 | cytopathic effect / MTT |  | MT-4 | EC50 | IIIB | 30 µM
Oc1ccc(-c2nnc3sc(-c4ccco4)nn23)c(Cl)c1Cl | MTT |  | MT-4 | EC50 | IIIB | >27.51 µg/mL
COC(=O)[C@H](C)NP(=O)(OC[C@@H]1C=C[C@H](n2cc(C)c(=O)[nH]c2=O)O1)Oc1ccc(OC)cc1 | p24 |  | PBMC | EC50 | IIIB | 0.004 µM
COc1ccc(C(=O)CSc2nc(Cc3ccccc3)c(C(C)C)c(=O)[nH]2)cc1 |  |  | C8166 | EC50 |  | 0.1441 µM
CC(C)[C@H](NC(=O)c1ccccc1)C(=O)N/N=C/c1c(F)cccc1Cl | MTT |  | MT-4 | EC50 | IIIB | 17.4 µM
Nc1ccn([C@H]2C=C[C@@H](CO)O2)c(=O)n1 | cytopathic effect / trypan blue |  | MT-4 | EC50 | IIIB | 0.91 µM
CC(C)[C@@H](NC(=O)c1ccccc1)C(=O)N/N=C/c1ccccc1F | MTT |  | MT-4 | EC50 | IIIB | >366 µM
COc1ccc(S(=O)(=O)N(CC(C)C)C[C@@H](O)CC(=O)N2CCN(Cc3cccnc3)C[C@H]2C(=O)NC(C)(C)C)cc1 | p24 |  | CEM | EC50 | IIIB | <1 µM
O=C(O)c1cc(NS(=O)(=O)c2ccc(-c3ccc(S(=O)(=O)Nc4cc(C(=O)O)c(O)c(S(=O)(=O)O)c4)cc3)cc2)cc(S(=O)(=O)O)c1O | syncytia |  | MT-4 | EC50 | IIIB | <100 µM
N#CC1C=Cc2c(ccc3ccccc23)N1C(=O)c1ccco1 | syncytia | RT-P236L | MOLT-3 | EC50 | IIIB | 50 µM
Nc1cc(O)ccc1-c1n[nH]c(=S)n1N | MTT |  | MT-4 | EC50 | IIIB | >12 µg/mL
CCc1nc2sc(C(N)=O)c(N)c2cc1C | XTT |  | CEM-SS | EC50 | RF | >330 µM
CCCCNP(=O)(OC[C@@H]1O[C@H](n2cc(C)c(=O)[nH]c2=O)C[C@H]1N=[N+]=[N-])OC[C@H]1O[C@@H](n2cc(C)c(=O)[nH]c2=O)C[C@@H]1N=[N+]=[N-] |  |  | CEM + CEM TK- | EC50 |  | >10 µM
COc1ccc(S(=O)(=O)N(CC(C)C)CC(F)(F)C(=O)[C@@H](Cc2ccccc2)NC(=O)O[C@H]2CCOC2)cc1 | p24 |  | CEM | EC50 | IIIB | <1 µM
O=C(O)c1ccc(Nc2ccc3ccccc3c2O)cc1 | MTT |  | MT-4 | EC50 |  | >70.07 µM

The first 6 rows once more:

| compound | read by | mutations | cells | measure | strain | result |
|---|---|---|---|---|---|---|
| N#CC1C=Cc2ccccc2N1C(=O)c1ccc(Cl)cc1 | syncytia |  | MOLT-3 | EC50 | IIIB | 5.5 µM |
| Cc1cn([C@@H]2C[C@@H](N=[N+]=[N-])[C@H](COP(N)(=O)OC[C@H]3O[C@@H](n4cc(C)c(=O)[nH]c4=O)C[C@@H]3N=[N+]=[N-])O2)c(=O)[nH]c1=O |  |  | CEM + CEM TK- | EC50 |  | >10 µM |
| CC(C)CN(CC(O)CCN1C[C@H]2CCCC[C@H]2C[C@H]1C(=O)NC(C)(C)C)S(=O)(=O)c1ccccc1 | p24 |  | CEM | EC90 | IIIB | 1 µM |
| CCc1c(Sc2ccccc2)n(COCCO)c(=O)[nH]c1=O | MTT / syncytia |  | MT-2 | EC50 | IIIB | 0.027 µM |
| CCc1c(Sc2ccccc2)n(COCc2ccccc2)c(=O)[nH]c1=O | cytopathic effect / MTT |  | MT-4 | EC50 | IIIB | 0.0049 µM |
| Cc1cc(C)c2c(N)c(C(=O)Nc3cccc(F)c3)sc2n1 | XTT |  | CEM-SS | EC50 | RF | >100 µM |